Compound potency records, mixed from different reports. Data source: NIAID ChemDB in PubChem.

Shared fields: growth or infection tests; organism: Herpes simplex virus 2; method: cytopathic effect; read-out: EC50

ECn: concentration that inhibits the pathogen or its effect by n%.

compound | strain | cells | value
Nc1nc2c(ncn2[C@H]2C=C[C@@H](CO)CC2)c(=O)[nH]1 | - | VERO | 0.1–1 µM
COc1ccc(-c2[nH]c3nc4c(ncn4COCCO)c(=O)n3c2-c2ccc(C(c3ccccc3)c3ccccc3)cc2)cc1 | 196 | - | >16 µg/mL
Nc1ccn([C@H]2C[C@@H](O)[C@H](CO)O2)c(=O)n1 | G | VERO B | >10 µM
Nc1ccn([C@@H]2O[C@H](CO)[C@@H](O)[C@@H]2O)c(=O)n1 | Strain 196 | Primary rabbit kidney cells | 0.04 µg/mL
Nc1nc2c(ncn2COCCO)c(=O)[nH]1 | 196 | PRK | 0.07 µg/mL
CCCc1cn([C@H]2C[C@H](O)[C@@H](CO)O2)c(=O)[nH]c1=O | Strain 196 | Primary rabbit kidney cells | 7 µg/mL
CCO[C@@H]1[C@@H](OCC)[C@H](Cc2ccccc2)O[C@@H]2CO[C@@H](c3ccc(Cl)cc3)O[C@@H]12 | - | HFF | <0.03 µg/mL
COc1cc(Cc2cnc(-n3c(-c4ccccc4)nc4ccc(Br)cc4c3=O)nc2N)cc(OC)c1OC | G | E6SM | 80 µg/mL
Cc1cn(C2C[C@@H](CO)[C@@H](CO)S2)c(=O)[nH]c1=O | - | VERO | >100 µg/mL
CC1(C)[C@@H](CCO)C[C@H]1n1cnc2c(N)nc(N)nc21 | G | E6SM | >400 µg/mL
Nc1ncnc2c1ncn2C1C[C@@H](CO)[C@@H](CO)S1 | - | VERO | >100 µg/mL
O=c1[nH]c(=O)n([C@H]2C[C@H](O)[C@@H](COP(=O)([O-])OP(=O)([O-])OC[C@@H]3OC(O)[C@H](O)[C@H](O)[C@H]3O)O2)cc1I | 196 | PRK | 2 µg/mL
O=c1[nH]cnc2c1ncn2COCCO | - | PRK | >400 µg/mL
Nc1nc(-n2c(-c3ccccc3)nc3ccc(Br)cc3c2=O)nnc1-c1cccc(Cl)c1Cl | G | E6SM | 48 µg/mL
O=c1[nH]c(=O)n([C@H]2C[C@H](O)[C@@H](CO)O2)cc1I | 196 | PRK | 1 µg/mL
O=c1[nH]c(=O)n(C2CC(O)C(CO)O2)cc1CCCCl | LYONS | PRK | 0.23 µg/mL
Nc1nc2c(ncn2[C@@H](CCO)OCCO)c(=O)[nH]1 | - | HFF | >200 µM
CC=NC(=N)c1nc(-c2cccc(C)c2)n(COCCO)n1 | G | E6SM | >10 µg/mL
O=c1[nH]c(=O)n([C@H]2C[C@H](O)[C@@H](CO)O2)cc1C(O)C(Br)I | MS | HFF | 3.3 µM
O=C(C1CC1)N(O)c1ccc(Cl)cc1 | G | E6SM | >80 µg/mL
Cc1cn(N2CC[C@H](CO)[C@H]2CO)c(=O)[nH]c1=O | - | VERO | >100 µg/mL
CC1(C)[C@@H](CO)CC[C@@]1(C)Cn1nnc2c(=O)[nH]cnc21 | G | E6SM | >400 µg/mL
Nc1ncnc2c1ncn2[C@@H]1C=C(CO)[C@@H](O)[C@H]1O | G | E6SM | ≥40 µg/mL
Nc1ncnc2c1ncn2N1CC[C@H](CO)[C@H]1CO | - | VERO | >100 µg/mL
CC1(C)[C@@H](CCO)C[C@H]1n1cnc2c(N)ncnc21 | G | E6SM | 100 µg/mL
Nc1nc2c(ncn2COCCO)c(=O)[nH]1 | T33301 acyclovir-susceptible | HFF | 0.5 µg/mL
Nc1ccn([C@@H]2O[C@H](CO)[C@@H](O)[C@@H]2O)c(=O)n1 | MS | VERO | 1.1 µM
Cc1nc2ccc(Br)cc2c(=O)n1-c1nnc(-c2cccc(Cl)c2Cl)c(N)n1 | G | E6SM | >3.2 µg/mL
Nc1nc2c(ncn2COC(CO)CO)c(=O)[nH]1 | - | VERO | 1.4 µg/mL
Nc1ncnc2c1ncn2C1SC[C@H](CO)[C@H]1CO | - | VERO | >100 µg/mL
O=c1[nH]c(=O)n([C@H]2C[C@H](O)[C@@H](CO)O2)cc1C(O)C(Cl)I | MS | HFF | 15.8 µM
Nc1ncnc2c1ncn2C1OC[C@H](CO)[C@H]1CO | - | VERO | >100 µg/mL
COC(c1cn([C@H]2C[C@H](O)[C@@H](CO)O2)c(=O)[nH]c1=O)C(Cl)I | MS | HFF | >107 µM
CC1(C)[C@@H](CCO)C[C@H]1n1cnc2c(=O)[nH]cnc21 | G | E6SM | >400 µg/mL
O=c1c2ncn(COCCO)c2[nH]c2ncc(CO)n12 | LYONS | - | >3.2 µg/mL
O=c1[nH]c(=O)n([C@H]2C[C@H](O)[C@@H](CO)O2)cc1CCCl | G | PRK | 2.1 µg/mL
Cc1cn(C(CCO)OCCO)c(=O)[nH]c1=O | - | HFF | >200 µM
O=c1c2ncn(COC(CO)CO)c2nc2[nH]c(-c3ccccc3)cn12 | LYONS | E6SM | 0.005 µg/mL
Nc1ncnc2c1ncn2[C@@H]1O[C@@H](CO)[C@H](O)[C@H]1O | G | VERO B | >1000 µM
C=C(N=CC)c1nc(-c2ccccc2)n([C@@H]2O[C@H](CO)[C@@H](O)[C@H]2O)n1 | G | E6SM | 200 µg/mL
CCCSc1nc(N)nc2c1ncn2/C=C1/C[C@@H]1CO | - | HFF | 65.9 µM
O=c1[nH]c(=O)n([C@H]2C[C@H](O)[C@@H](CO)O2)cc1I | G | PRK | 1 µg/mL
O=c1c2ncn(COCCO)c2nc2[nH]c(-c3ccccc3)c(-c3ccc(C(c4ccccc4)c4ccccc4)cc3)n12 | G | - | >16 µg/mL
O=c1[nH]c(=O)n([C@H]2C[C@H](O)[C@@H](COP(=O)(O)O)O2)cc1I | 196 | PRK | 1 µg/mL
O=c1c2ncn(COCCO)c2[nH]c2ncc(C(c3ccccc3)(c3ccccc3)c3ccccc3)n12 | 196 | - | >16 µg/mL
CC1(C)[C@@H](CO)CC[C@@]1(C)Cn1cc(Br)c(=O)[nH]c1=O | G | E6SM | >400 µg/mL
CCCOc1nc(N)nc2c1ncn2/C=C1/C[C@@H]1CO | - | HFF | 62.8 µM
CC=NC(=N)c1nc(-c2cccc(OC)c2)n(COCCO)n1 | G | E6SM | 300 µg/mL
Nc1nc(OCC2CC2)c2ncn(/C=C3/C[C@@H]3CO)c2n1 | - | HFF | 171.6 µM
COC(c1cn([C@H]2C[C@H](O)[C@@H](CO)O2)c(=O)[nH]c1=O)C(Cl)Br | MS | HFF | >125 µM
O=C(CC1CCCCC1)N(O)c1ccccc1 | G | E6SM | >80 µg/mL
Nc1nc(Cl)c2ncn([C@@H](CCO)SCCO)c2n1 | - | HFF | >200 µM
NC1=NC2C(C=CN2CC(CO)CCO)C(=O)N1 | G | VERO | 11.3 µg/mL
Nc1nc2c(ncn2C[C@]2(CO)C[C@H]2CO)c(=O)[nH]1 | - | VERO | 1.5 µg/mL
Nc1nc2c(ncn2[C@@H]2C[C@H](CO)[C@H]2CO)c(=O)[nH]1 | - | VERO | 0.01–0.1 µM
C=CCNc1nc(N)nc2c1ncn2/C=C1/C[C@@H]1CO | - | HFF | >367 µM
COC(c1cn([C@H]2C[C@H](O)[C@@H](CO)O2)c(=O)[nH]c1=O)C(Br)I | MS | HFF | >100 µM
[N-]=[N+]=N[C@@H]1[C@@H](OP(=O)(O)OC[C@H]2O[C@@H](n3cnc4c(N)ncnc43)[C@H](OP(=O)(O)OCCOCn3cnc4c(=O)[nH]c(N)nc43)[C@H]2N=[N+]=[N-])[C@H](n2cnc3c(N)ncnc32)O[C@@H]1CO | 196 | PRK | 1 µg/mL
O=c1ccn([C@H]2C[C@@H](O)[C@H](CO)O2)c(=O)[nH]1 | G | VERO B | >100 µM
O=c1[nH]c(=O)n([C@@H]2C[C@H](CO)[C@@H](O)C2)cc1/C=C/Br | G | PRK | 7 µg/mL
C=C(N=CC)c1nc(-c2ccc(OC)cc2)n([C@@H]2O[C@H](CO)[C@@H](O)[C@H]2O)n1 | G | E6SM | 300 µg/mL
CNc1nc2c(=O)[nH]c(N)nc2n1COCCO | - | PRK | 3 µg/mL
Nc1ccn(C2OC[C@H](CO)[C@H]2CO)c(=O)n1 | - | VERO | >100 µg/mL
O=c1[nH]c(=O)n(C2CC(CO)[C@@H](O)C2)cc1/C=C/Br | G | PRK | 7 µg/mL
Nc1nc(=O)n([C@@H]2OC3COP(=O)([O-])OC3[C@H]2O)cc1F | MS | VERO | 92 µM
CC[C@]1(Cl)C(=O)NC(=O)N([C@H]2C[C@H](O)[C@@H](CO)O2)[C@@H]1OC | MS | HFF | >50 µM
Cc1cn([C@@H]2O[C@H](CO)[C@@H](O)[C@@H]2O)c(=O)[nH]c1=O | UW-268 | HELF | 1 µg/mL
Nc1ncnc2c1ncn2C[C@@H](CO)OCP(=O)(O)O | LYONS | ESM | 0.1 µg/mL
Nc1ncnc2c1ncn2[C@@H]1O[C@H](CO)[C@@H](O)[C@H]1OP(=O)(O)OC[C@H]1O[C@@H](n2cnc3c(N)ncnc32)[C@H](OP(=O)(O)OC[C@H]2O[C@@H](n3cc(F)c(=O)[nH]c3=O)C[C@@H]2O)[C@@H]1O | LYONS | PRK | >100 µg/mL
Nc1nc2c(ncn2CCC(CO)CO)c(=O)[nH]1 | - | VERO | 5.3 µg/mL
CC1(C)[C@@H](CO)CC[C@@]1(C)Cn1cnc2c(Cl)ncnc21 | G | E6SM | >400 µg/mL
CC[C@@]1(Cl)C(=O)NC(=O)N([C@H]2C[C@H](O)[C@@H](CO)O2)[C@H]1OC | MS | HFF | >50 µM
CC(=O)OCCOCn1cnc2c(Cl)nc(Cl)nc21 | - | PRK | >10 µg/mL
Nc1ncnc2c1ncn2C[C@H](O)CO | LYONS | PRK | >400 µg/mL
O=c1c2ncn(COC(CO)CO)c2[nH]c2nccn12 | G | - | 2 µg/mL
Nc1nc2c(ncn2COC(CO)CO)c(=O)[nH]1 | - | VERO | 0.01–0.1 µM
Nc1nc(=O)n([C@H]2C=C(F)[C@@H](CO)O2)cc1F | MS | VERO | <0.5 µM
O=c1[nH]c(=O)n(C2CC(CO)[C@H](O)C2)cc1I | G | PRK | 20 µg/mL
O=c1[nH]c(=O)n(COCCO)cc1[N+](=O)[O-] | - | PRK | >400 µg/mL

Repeating the final 8 entries:

{"compound": "CC[C@@]1(Cl)C(=O)NC(=O)N([C@H]2C[C@H](O)[C@@H](CO)O2)[C@H]1OC", "strain": "MS", "cells": "HFF", "value": ">50 µM"}
{"compound": "CC(=O)OCCOCn1cnc2c(Cl)nc(Cl)nc21", "cells": "PRK", "value": ">10 µg/mL"}
{"compound": "Nc1ncnc2c1ncn2C[C@H](O)CO", "strain": "LYONS", "cells": "PRK", "value": ">400 µg/mL"}
{"compound": "O=c1c2ncn(COC(CO)CO)c2[nH]c2nccn12", "strain": "G", "value": "2 µg/mL"}
{"compound": "Nc1nc2c(ncn2COC(CO)CO)c(=O)[nH]1", "cells": "VERO", "value": "0.01–0.1 µM"}
{"compound": "Nc1nc(=O)n([C@H]2C=C(F)[C@@H](CO)O2)cc1F", "strain": "MS", "cells": "VERO", "value": "<0.5 µM"}
{"compound": "O=c1[nH]c(=O)n(C2CC(CO)[C@H](O)C2)cc1I", "strain": "G", "cells": "PRK", "value": "20 µg/mL"}
{"compound": "O=c1[nH]c(=O)n(COCCO)cc1[N+](=O)[O-]", "cells": "PRK", "value": ">400 µg/mL"}

An empty or dashed field is not shown. Conditions beyond the fields shown may differ between rows. Two numbers with a dash give a range or band.